The results in this text go back to patent US9499496B2, “Inhibitors of respiratory syncytial virus” (University of Kansas, priority 2012, dated 2016).

In this data set the test system is RSV. Put plainly: Time of addition CPE assay. Format: cell-based, RSV Long strain. To be noted: point of intervention in viral life cycle. On the procedure:
Assay Description: HEp-2 cells were plated in 96 well black tissue culture plates at 10,000 cells per well in 80 μl and incubated 24 hours at 37° C., 5% CO2. All cell plating was conducted using a Matrix WellMate™ and cells were maintained at room temperature with stirring during the plating process. Compounds were diluted in media to give a final concentration of 25 μM and added to plates at −1, 0, 1, 4, 6, 20 and 24 hours post-infection (p.i.). The cells were infected with RSV Long strain at an MOI of 3 and the assay plates were incubated for six days at 37° C., 5% CO2 and 90% relative humidity.
The Cell Titer Glo® assay was used to determine viability of the cells. The assay plates were equilibrated to room temperature for 10 minutes and then an equal volume of Cell Titer-Glo reagent (Promega Inc.) was added to each well. Plates were incubated for 10 min at room temperature and luminescence was measured using a multi-label plate reader with an integration time of 0.1 s.
A cell-based assay was used to determine the ability of the probe to inhibit different stages of a single round of viral replication. […] Compounds B and F (diamonds and squares, respectively) are of similar chemical structure. The percent cell viability values at each time point for the respective molecules are compared with that of ribavirin (RBV). […]

With `COCCCNC(=O)c1ccc(Cn2c(=O)c3ccccc3n(Cc3ccc(C(C)C)cc3)c2=O)cc1` [Compound A, 4-((1-(4-isopropylbenzyl)-2,4-dioxo-1,2-dihydroquinazolin-3(4H)-yl)methyl)-N-(3-methoxypropyl)benzamide], the MOA result is recorded as “post-entry inhibitor”.

For the compound `NC(=O)c1ncn([C@@H]2O[C@H](CO)[C@@H](O)[C@H]2O)n1` [ribavirin, reference compound], the MOA result is “post-entry”.
